Data as given in US20060003896A1, “Novel diterpenoid compounds imparting stress resistance to plants” (National Institute of Agrobiological Sciences, priority 2002, published 2006).

Experiment: Quantification of endogenous amount of the active substance in tobacco leaves (HPLC)

Question: For `CC(/C=C/[C@@H]1[C@@]2(C)CCCC(C)(C)[C@@H]2CC[C@@]1(C)O)=C\CO` [WAF-1, (11E,13E)-labda-11,13-diene-8α,15-diol], which “endogenous content in leaves” value (TMV-inoculated leaves cultured at 20° C., 48 hours) is on record?
Answer: 126±22 ng/g FW

Question: And the “endogenous content in leaves” value (TMV-inoculated leaves cultured at 20° C., shortly after inoculation)?
Answer: 26±6 ng/g FW

Question: What about the “endogenous content in leaves” value (TMV-inoculated leaves, 30° C. 48 hours then shifted to 20° C., 0 hours) of the same compound?
Answer: 43±9 ng/g FW

Question: And the “endogenous content in leaves” value (TMV-inoculated leaves, 30° C. 48 hours then shifted to 20° C., 24 hours)?
Answer: 189±45 ng/g FW
